Source: patent US11053205B2, “Phenazine derivatives as antimicrobial agents” (University of Florida Research Foundation, Incorporated, priority 2017, dated 2021)

Legend:
HeLa cells = assay: LDH release assay for HeLa cytotoxicity; conditions: cytotoxicity IC50 divided by the MIC against MRSA-1707
UV-Vis metal(II) binding [1] = format: physicochemical; parameters: key: UV-Vis results are reported as “Binding Y/N” for HPs; UV-Vis results are reported as “Binding Y/N” for HPs
UV-Vis metal(II) binding [2] = format: physicochemical; parameters: key to Zinc(II) Binding Y/N: UV-Vis results are reported as “Binding Y/N” for HPs; UV-Vis results are reported as “Binding Y/N” for HPs; conditions: for Zinc(II) Binding Y/N: UV-Vis; for zinc(II) binding (UV-Vis): in words
UV-Vis metal(II) binding [3] = format: physicochemical; parameters: key to Magnesium(II) Binding Y/N: UV-Vis results are reported as “Binding Y/N” for HPs; UV-Vis results are reported as “Binding Y/N” for HPs; conditions: for Magnesium(II) Binding Y/N: UV-Vis; for magnesium(II) binding (UV-Vis): in words
UV-Vis metal(II) binding [4] = format: physicochemical; parameters: key: UV-Vis results are reported as “Binding Y/N” for HPs; UV-Vis results are reported as “Binding Y/N” for HPs; remark: listed apart in the source
VRE 700221 = assay: MIC, broth microdilution (CLSI)
MRSA BAA-1707 = assay: Metal(II)-cation co-treatment MIC assay; format: cell-based, Staphylococcus aureus; conditions: metal(II) at 200 μM

Compound | Selectivity Index (HeLa cells) | Iron(II) Binding Y/N (UV-Vis metal(II) binding [1]) | Zinc(II) Binding Y/N (UV-Vis metal(II) binding [2]) | zinc(II) binding (UV-Vis) (UV-Vis metal(II) binding [2]) | Magnesium(II) Binding Y/N (UV-Vis metal(II) binding [3]) | magnesium(II) binding (UV-Vis) (UV-Vis metal(II) binding [3]) | Copper(II) Binding Y/N (UV-Vis metal(II) binding [4]) | fold increase in antibacterial activities compared to HP 1 (VRE 700221) | fold elevated MIC with copper(II), iron(II) and zinc(II) (MRSA BAA-1707)
CC1=C(C)C(=O)C(COC(=O)OCOc2c(Br)cc(Br)c3nc4cc(Cl)ccc4nc23)=C(C)C1=O [87A] | > 667 |  |  |  |  |  |  |  | 
CCN(CC)c1ccc2nc3c(O)c(Br)cc(Br)c3nc2c1Br [Compound 64A] | >667 |  |  |  |  |  |  |  | 
Oc1c(Br)cc(Br)c2nc3ccccc3nc12 [HP 1, 2,4-dibromophenazin-1-ol] |  | Y | Y | bind | N | but not magnesium(II) | Y |  | 
Oc1c(Br)cc(Br)c2nc3ccc(Oc4ccccc4)cc3nc12 [HP 1-16] |  |  |  |  |  |  |  | 2 fold | 
Cc1cccc2nc3c(O)c(Br)cc(Br)c3nc12 [HP 1-17] |  | Y | Y | bind | N | but not magnesium(II) | Y |  | 
Oc1c(Br)cc(Br)c2nc3c(Cl)cccc3nc12 [HP 1-21] |  | Y | Y | bind | N | but not magnesium(II) | Y |  | 
COCCOCCOCCOCCOC(=O)Oc1c(Br)cc(Br)c2nc3c(C)cccc3nc12 [HP 1-25] |  | N | N | does not bind | N | does not bind | N |  | 
c1ccc(CN(CCN(Cc2ccccn2)Cc2ccccn2)Cc2ccccn2)nc1 [TPEN, N,N,N′,N′-tetrakis(2-pyridylmethyl)ethane-1,2-diamine, reference compound] |  |  |  |  |  |  |  |  | 3- to 11 fold
